Test results as given in patent publication US20230045284.

Experiments:
GST-Rap1A, P62834 = biological target: T1, GST-Rap1A, P62834
T1 chain: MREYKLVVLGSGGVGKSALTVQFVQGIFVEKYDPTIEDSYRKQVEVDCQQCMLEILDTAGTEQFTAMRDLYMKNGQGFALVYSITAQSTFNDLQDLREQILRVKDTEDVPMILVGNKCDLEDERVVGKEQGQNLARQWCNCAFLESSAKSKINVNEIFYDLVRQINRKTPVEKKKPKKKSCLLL

GST-Rab4B, P61018 = biological target: T2, GST-Rab4B, P61018
T2 chain: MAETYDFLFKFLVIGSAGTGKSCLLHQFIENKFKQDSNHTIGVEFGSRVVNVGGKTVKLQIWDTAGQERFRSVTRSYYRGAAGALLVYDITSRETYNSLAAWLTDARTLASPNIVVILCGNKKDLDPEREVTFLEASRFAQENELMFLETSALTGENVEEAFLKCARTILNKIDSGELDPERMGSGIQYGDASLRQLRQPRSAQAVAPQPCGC

GST-RheB2, Q8TAI7 = biological target: T3, GST-RheB2, Q8TAI7
T3 chain: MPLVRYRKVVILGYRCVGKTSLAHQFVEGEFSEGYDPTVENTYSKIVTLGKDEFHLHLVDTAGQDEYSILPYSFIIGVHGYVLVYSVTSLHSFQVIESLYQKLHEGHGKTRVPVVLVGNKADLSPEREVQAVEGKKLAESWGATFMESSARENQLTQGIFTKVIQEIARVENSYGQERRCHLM

[1] = biological target: Recombinant 6xHis-tagged HRas (rHRas; NP_001123914.1), P01112
GST-Rab5A, P20339 = biological target: T4, GST-Rab5A, P20339
T4 chain: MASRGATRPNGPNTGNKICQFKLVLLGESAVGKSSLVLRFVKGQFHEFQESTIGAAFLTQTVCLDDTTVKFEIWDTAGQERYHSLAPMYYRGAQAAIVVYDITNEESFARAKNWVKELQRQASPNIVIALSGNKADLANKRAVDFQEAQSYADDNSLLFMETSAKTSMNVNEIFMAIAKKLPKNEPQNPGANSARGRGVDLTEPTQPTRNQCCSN

GST-Rit2, Q99578 = biological target: T5, GST-Rit2, Q99578
T5 chain: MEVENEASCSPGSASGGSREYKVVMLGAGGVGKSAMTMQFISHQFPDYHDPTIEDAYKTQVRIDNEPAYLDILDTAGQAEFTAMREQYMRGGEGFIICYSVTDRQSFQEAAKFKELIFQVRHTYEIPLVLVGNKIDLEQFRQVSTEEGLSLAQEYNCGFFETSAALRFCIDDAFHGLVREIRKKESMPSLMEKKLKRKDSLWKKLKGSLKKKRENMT

[2] = biological target: GST-HRas (rGST-HRas), P01112
GST-Rab4A, P20338 = biological target: T6, GST-Rab4A, P20338
T6 chain: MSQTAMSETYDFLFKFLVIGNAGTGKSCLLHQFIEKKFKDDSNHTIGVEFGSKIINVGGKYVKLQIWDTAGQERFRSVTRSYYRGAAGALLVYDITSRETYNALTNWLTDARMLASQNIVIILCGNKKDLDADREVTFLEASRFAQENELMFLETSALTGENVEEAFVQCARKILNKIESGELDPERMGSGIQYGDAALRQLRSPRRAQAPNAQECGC

[3] = biological target: Recombinant 6xHis-tagged NRas (rNRas; NP_002515.1), P01111

B1: Recombinant 6xHis-tagged DUF5Vv (rDUF5Vv; V. vulnificus CMCP6 MARTXVv Q3596-L4089) (protein)
chain: QELKERAKVFAKPIGASYQGILDQLDLVHQAKGRDQIAASFELNKKINDYIAEHPTSGRNQALTQLKEQVTSALFIGKMQVAQAGIDAIAQTRPELAARIFMVAIEEANGKHVGLTDMMVRWANEDPYLAPKHGYKGETPSDLGFDAKYHVDLGEHYADFKQWLETSQSNGLLSKATLDESTKTVHLGYSYQELQDLTGAESVQMAFYFLKEAAKKADPISGDSAEMILLKKFADQSYLSQLDSDRMDQIEGIYRSSHETDIDAWDRRYSGTGYDELTNKLASATGVDEQLAVLLDDRKGLLIGEVHGSDVNGLRFVNEQMDALKKQGVTVIGLEHLRSDLAQPLIDRYLATGVMSSELSAMLKTKHLDVTLFENARANGMRIVALDANSSARPNVQGTEHGLMYRAGAANNIAVEVLQNLPDGEKFVAIYGKAHLQSHKGIEGFVPGITHRLDLPALKVSDSNQFTVEQDDVSLRVVYDDVANKPKITFKGSL
GST-Rap1A, P62834
  in-vitro cleavage of GST-fusion GTPases: only Rap1 was confirmed as a DUF5Vv substrate, with cleavage occurring after Y32
GST-RhoB, P62745
  in vitro cleavage of rGST-GTPase, SDS-PAGE: None of the other GTPase was cleaved by DUF5Vv
GST-Rac1, P63000
  in vitro cleavage of rGST-GTPase, SDS-PAGE: None of the other GTPase was cleaved by DUF5Vv
GST-Rab4B, P61018
  in vitro cleavage of rGST-GTPase, SDS-PAGE: None of the other GTPase was cleaved by DUF5Vv
GST-RheB2, Q8TAI7
  in vitro cleavage of rGST-GTPase, SDS-PAGE: None of the other GTPase was cleaved by DUF5Vv
[1]
  in-vitro cleavage reaction of purified proteins: rHRas and rNRas were likewise efficiently processed by purified rDUF5Vv
GST-Rab5A, P20339
  in vitro cleavage of rGST-GTPase, SDS-PAGE: None of the other GTPase was cleaved by DUF5Vv
GST-Ran, P62826
  in vitro cleavage of rGST-GTPase, SDS-PAGE: None of the other GTPase was cleaved by DUF5Vv
GST-RhoG, P84095
  in vitro cleavage of rGST-GTPase, SDS-PAGE: None of the other GTPase was cleaved by DUF5Vv
GST-Rab11A, P62491
  in vitro cleavage of rGST-GTPase, SDS-PAGE: None of the other GTPase was cleaved by DUF5Vv
GST-Rit2, Q99578
  in vitro cleavage of rGST-GTPase, SDS-PAGE: None of the other GTPase was cleaved by DUF5Vv
[2]
  in vitro processing of 10 µM GST-GTPase by 10 µM rDUF5Vv for 10 min: Only the positive samples, HRas and Rap1A, are duplicated in FIG. 26F
GST-Rab4A, P20338
  in vitro cleavage of rGST-GTPase, SDS-PAGE: None of the other GTPase was cleaved by DUF5Vv
GST-RhoC, P08134
  in vitro cleavage of rGST-GTPase, SDS-PAGE: None of the other GTPase was cleaved by DUF5Vv
[3]
  in-vitro cleavage reaction of purified proteins: rHRas and rNRas were likewise efficiently processed by purified rDUF5Vv
